Laboratory results published in article PMC7150849 (Viruses, 2020).

What was measured:
Type in all cases: cell-based
[1] = tested on: HIV-1 NL4-3N126K pseudovirus; conditions: for IC50: NL4-3N126K (subtype B, CXCR4-tropic) pseudovirus, 100 TCID50, TZM-bl cells 48 h, luciferase, mean ± SD, three independent experiments; for FC (fold change in the IC50 relative to the WT level): NL4-3N126K vs NL4-3WT
[2] = tested on: HIV-1 92RW020N126K pseudovirus; conditions: for IC50: 92RW020N126K (subtype A, CCR5-tropic) pseudovirus, 100 TCID50, TZM-bl cells 48 h, luciferase, mean ± SD, three independent experiments; for FC (fold change in the IC50 relative to the WT level): 92RW020N126K vs 92RW020WT
[3] = tested on: HIV-1 AC10.29N126K pseudovirus; conditions: for IC50: AC10.29N126K (subtype B, CCR5-tropic) pseudovirus, 100 TCID50, TZM-bl cells 48 h, luciferase, mean ± SD, three independent experiments; for FC (fold change in the IC50 relative to the WT level): AC10.29N126K vs AC10.29WT
[4] = tested on: HIV-1 REJO4541N126K pseudovirus; conditions: for IC50: REJO4541N126K (subtype B, CCR5-tropic) pseudovirus, 100 TCID50, TZM-bl cells 48 h, luciferase, mean ± SD, three independent experiments; for FC (fold change in the IC50 relative to the WT level): REJO4541N126K vs REJO4541WT
[5] = tested on: HIV-1 ZM53M.PB12N126K pseudovirus; conditions: for IC50: ZM53M.PB12N126K (subtype C, CCR5-tropic) pseudovirus, 100 TCID50, TZM-bl cells 48 h, luciferase, mean ± SD, three independent experiments; for FC (fold change in the IC50 relative to the WT level): ZM53M.PB12N126K vs ZM53M.PB12WT
[6] = tested on: HIV-1 ZM109F.PB4N126K pseudovirus; conditions: for IC50: ZM109F.PB4N126K (subtype C, CCR5-tropic) pseudovirus, 100 TCID50, TZM-bl cells 48 h, luciferase, mean ± SD, three independent experiments; for FC (fold change in the IC50 relative to the WT level): ZM109F.PB4N126K vs ZM109F.PB4WT
[7] = tested on: HIV-1 QH0692N126K pseudovirus; conditions: for IC50: QH0692N126K (subtype B, CCR5-tropic) pseudovirus, 100 TCID50, TZM-bl cells 48 h, luciferase, mean ± SD, three independent experiments; for FC (fold change in the IC50 relative to the WT level): QH0692N126K vs QH0692WT
[8] = tested on: HIV-1 JRFLN126K pseudovirus; conditions: for IC50: JRFLN126K (subtype B, CCR5-tropic) pseudovirus, 100 TCID50, TZM-bl cells 48 h, luciferase, mean ± SD, three independent experiments; for FC (fold change in the IC50 relative to the WT level): JRFLN126K vs JRFLWT

Structure (SMILES) | IC50 [1] | FC (fold change in the IC50 relative to the WT level) [1] | IC50 [2] | FC (fold change in the IC50 relative to the WT level) [2] | IC50 [3] | FC (fold change in the IC50 relative to the WT level) [3] | IC50 [4] | FC (fold change in the IC50 relative to the WT level) [4] | IC50 [5] | FC (fold change in the IC50 relative to the WT level) [5] | IC50 [6] | FC (fold change in the IC50 relative to the WT level) [6] | IC50 [7] | FC (fold change in the IC50 relative to the WT level) [7] | IC50 [8] | FC (fold change in the IC50 relative to the WT level) [8]
CC[C@H](C)[C@H](NC(=O)[C@H](CCC(=O)O)NC(=O)[C@H](CCC(=O)O)NC(=O)[C@@H](NC(=O)[C@H](CCCCN)NC(=O)[C@H](CCCCN)NC(=O)[C@@H](NC(=O)[C@H](Cc1ccc(O)cc1)NC(=O)[C@H](CCC(=O)O)NC(=O)[C@H](CCC(=O)O)NC(=O)[C@@H](NC(=O)[C@H](CCCCN)NC(=O)[C@H](CCCCN)NC(=O)[C@H](CCC(=O)O)NC(=O)[C@H](Cc1c[nH]c2ccccc12)NC(=O)[C@H](CCC(=O)O)NC(=O)[C@H](CCC(=O)O)NC(=O)[C@H](Cc1c[nH]c2ccccc12)NC(=O)[C@@H](NC(=O)[C@H](CCSC)NC(=O)[C@H](CCC(=O)O)NC(C)=O)[C@@H](C)O)[C@@H](C)CC)[C@@H](C)O)[C@@H](C)CC)C(=O)N[C@@H](CC(C)C)C(=O)N[C@@H](CCCCN)C(N)=O [HP23] | 1.5 ± 0.2 nM | 2.6 | 3.3 ± 1 nM | 1.5 | 1.2 nM | 1.6 | 5.7 ± 2 nM | 1.8 | 1.6 ± 0.3 nM | 1.3 | 1.4 ± 0.3 nM | 1.8 | 41.9 ± 3 nM | 1.2 | 15.3 ± 0.2 nM | 2.6
CC[C@H](C)[C@H](NC(=O)[C@H](CC(C)C)NC(=O)[C@H](CCC(=O)O)NC(=O)[C@H](CCC(=O)O)NC(=O)[C@@H](NC(=O)[C@H](CCCCN)NC(=O)[C@H](CCCCN)NC(=O)[C@@H](NC(=O)[C@H](Cc1ccc(O)cc1)NC(=O)[C@H](CCC(=O)O)NC(=O)[C@H](CCC(=O)O)NC(=O)[C@@H](NC(=O)[C@H](CCCCN)NC(=O)[C@H](CCCCN)NC(=O)[C@H](CC(=O)O)NC(=O)[C@H](Cc1c[nH]c2ccccc12)NC(=O)[C@H](CCC(=O)O)NC(=O)[C@H](CCC(=O)O)NC(=O)[C@H](Cc1c[nH]c2ccccc12)NC(C)=O)[C@@H](C)CC)[C@@H](C)O)[C@@H](C)CC)C(=O)N[C@@H](CCCCN)C(=O)N[C@@H](CCCCN)C(=O)N[C@@H](CO)C(N)=O [SC22EK] | 86.5 ± 1.8 nM | 1.8 | 1330 ± 766 nM | 3.1 | 248 ± 38.7 nM | 2.2 | 1280 ± 78.2 nM | 3.4 | 164 ± 18.7 nM | 3.5 | 79.4 ± 6.9 nM | 1.8 | 1160 ± 203 nM | 0.6 | 600 ± 93.3 nM | 1.3
CC[C@H](C)[C@H](NC(=O)[C@H](CCC(=O)O)NC(=O)[C@H](CCCNC(=N)N)NC(=O)[C@H](CCC(=O)O)NC(=O)[C@H](Cc1c[nH]c2ccccc12)NC(=O)[C@@H](NC(=O)[C@H](CCC(=O)O)NC(=O)[C@H](Cc1c[nH]c2ccccc12)NC(=O)[C@H](CO)NC(C)=O)[C@@H](C)O)C(=O)N[C@@H](CCC(=O)O)C(=O)N[C@@H](CC(N)=O)C(=O)N[C@@H](Cc1ccc(O)cc1)C(=O)N[C@H](C(=O)N[C@@H](CCCNC(=N)N)C(=O)N[C@@H](CCC(N)=O)C(=O)N[C@H](C(=O)N[C@@H](Cc1ccc(O)cc1)C(=O)N[C@@H](CCCNC(=N)N)C(=O)N[C@H](C(=O)N[C@@H](CC(C)C)C(=O)N[C@@H](CCC(=O)O)C(=O)N[C@@H](CCC(=O)O)C(=O)N[C@@H](CO)C(=O)N[C@@H](CCC(N)=O)C(=O)N[C@@H](CCC(=O)O)C(=O)N[C@@H](CCC(N)=O)C(=O)N[C@@H](CCC(N)=O)C(=O)N[C@@H](CC(=O)O)C(=O)N[C@@H](CCCNC(=N)N)C(=O)N[C@@H](CC(N)=O)C(=O)N[C@@H](CCC(=O)O)C(=O)N[C@@H](CCCNC(=N)N)C(=O)N[C@@H](CC(=O)O)C(=O)N[C@@H](CC(C)C)C(=O)N[C@@H](CC(C)C)C(=O)N[C@@H](CCC(=O)O)C(N)=O)[C@@H](C)CC)[C@@H](C)CC)[C@@H](C)O [SFT, sifuvirtide] | 5.1 ± 1 nM | 2.7 | 10.9 ± 1.3 nM | 1.5 | 2.5 ± 0.9 nM | 1.2 | 10.5 ± 1.9 nM | 1.7 | 2.8 ± 0.9 nM | 1.3 | 4.5 ± 0.4 nM | 1.7 | 62.5 ± 7.7 nM | 2.2 | 31.3 ± 12.9 nM | 3.5
CC[C@H](C)[C@H](NC(=O)[C@H](CC(C)C)NC(=O)[C@H](CCC(=O)O)NC(=O)[C@H](CCC(=O)O)NC(=O)[C@@H](NC(=O)[C@H](CCCCN)NC(=O)[C@H](CCCCN)NC(=O)[C@@H](NC(=O)[C@H](Cc1ccc(O)cc1)NC(=O)[C@H](CCC(=O)O)NC(=O)[C@H](CCC(=O)O)NC(=O)[C@@H](NC(=O)[C@H](CCCCN)NC(=O)[C@H](CCCCN)NC(=O)[C@H](CC(=O)O)NC(=O)[C@H](Cc1c[nH]c2ccccc12)NC(=O)[C@H](CCC(=O)O)NC(=O)[C@H](CCC(=O)O)NC(=O)[C@H](Cc1c[nH]c2ccccc12)NC(=O)[C@@H](NC(=O)[C@H](CCSC)NC(C)=O)[C@@H](C)O)[C@@H](C)CC)[C@@H](C)O)[C@@H](C)CC)C(=O)N[C@@H](CCCCN)C(=O)N[C@@H](CCCCN)C(=O)N[C@@H](CO)C(N)=O [MTSC22EK] | 4.9 ± 1.6 nM | – | 14.3 ± 6.8 nM | – | 4.1 ± 1.6 nM | – | 13.2 ± 3.8 nM | – | 3.2 ± 0.7 nM | – | 3.3 ± 0.4 nM | – | 92.2 ± 22.4 nM | – | – | –
